Experimental findings from PubChem BioAssay AID504329 (Southern Research Specialized Biocontainment Screening …, 2011) are described below.

The list shows a part of the results. Entries with a potency or affinity are not part of this list. Calls of active or inactive are those of the source. Rule as the data show it: inconclusive = inhibition above about 27% without an active follow-up result; inactive = below that.

The nature of the assay: H1N1 influenza NS1A inhibitors, functional cell based assay (AID 504329). The conditions noted are these: percent inhibition, at 12.5 µM, active compounds read high.
As usually defined, the inhibition is the change of the read-out against control, counted positive when it falls. Take `CCCC1OP(N)(=O)OCC1CC` (stereo not given): the inhibition was inactive: 2.52%.
As to `CC(=O)Nc1ccc([As](=O)(O)O)cc1`, the inhibition was inactive: 14.2%.
For the molecule `O=C(O)c1ccccc1[As](=O)(O)O`, the inhibition was inactive: -1.74%.
The value for `O=P(Nc1nc2ccc(Cl)cc2s1)(c1ccccc1)c1ccccc1` was inactive: 11.7%; that for `CN(C(=O)Cc1ccc(Cl)c(Cl)c1)[C@H]1CCCC[C@@H]1N1CCCC1` was inactive: 2.82%.
To `Cc1ccc(NP(=O)(Oc2ccccc2F)Oc2ccccc2F)nc1` belongs inactive: -2.2%.
To `Cc1cc(SC(NC(=O)c2ccc(F)cc2)C(Cl)(Cl)Cl)ncn1` (stereo not given) belongs inactive: 2.12%; to `CCOP(=O)(Nc1ccccc1)OCC`, inactive: -11.2%.
As to `CCN(N=Nc1nonc1N)c1nonc1N`, the inhibition was inactive: 3.05%.
The value for `Nc1cccc2ccc([As](=O)(O)O)cc12` was inactive: 3.35%; that for `NC(=O)c1cc([N+](=O)[O-])cc([N+](=O)[O-])c1N` was inactive: -18.2%.
In the case of `Cc1ccc(N/C(=N/P(=O)(N2CCOCC2)N2CCOCC2)N2CCOCC2)cc1`, the inhibition is inactive: -3.89%.
To `CN(C(=O)Cc1ccc(Cl)c(Cl)c1)[C@H]1CCCC[C@H]1N1CCCC1` belongs inactive: -10.5%; to `COc1ccccc1OP(=O)(Nc1ccc(C)cn1)Oc1ccccc1OC`, inactive: -1.88%.
For `CN1CCCC(OC(=O)C(c2ccccc2)c2ccccc2)C1` (stereo not given), the inhibition is inactive: 8.85%.
The value for `Clc1ccc(Cl)c(NC2=NCC(CBr)S2)c1` (stereo not given) was inactive: -7.81%.
To `Nc1cc(N)c2nonc2c1[N+](=O)[O-]` belongs inactive: 4.6%; to `CC(C)CC(=O)NC(Sc1ccc(Cl)cc1)C(Cl)(Cl)Cl` (stereo not given), inactive: -0.41%; to `O=C(NC(Sc1ccncn1)C(Cl)(Cl)Cl)c1ccccc1` (stereo not given), inactive: -4.39%.
For `Oc1ccccc1CNc1ccccn1`, the inhibition is inactive: -4.9%.
Consider `COc1ccc(C2=NCC(CBr)S2)cc1` (stereo not given), for which the inhibition was inactive: -7.73%.
With `CC(=O)N1C2C3N(C(C)=O)C1C1N(C(C)=O)C(C(N1C(C)=O)N3C(C)=O)N2C(C)=O`, the inhibition is inactive: 7.57%.
The value for `O=[N+]([O-])c1cccc2n[nH]nc12` was inactive: 4.38%; that for `O=[N+]([O-])c1cc([N+](=O)[O-])c(CCNc2ccccc2)c([N+](=O)[O-])c1` was inactive: 7.77%.
To `CCc1nc2c(n1)c1c(non1O)c1c2no[n+]1[O-]` belongs inactive: -1.97%; to `Cc1ccc(NP(=O)(Oc2ccccc2)Oc2ccccc2)nc1`, inactive: -5.16%; to `C[N+]1=C2C=CC=CC=C2SC12C([N+](=O)[O-])=CC([N+](=O)[O-])=C[C-]2[N+](=O)[O-]` (stereo not given), inactive: 24.6%.
The value for `Nc1ccc([As](=O)(O)c2ccc(N)cc2)cc1` was inactive: -1.67%; that for `CCN(/C(=N/P(=O)(N1CCOCC1)N1CCOCC1)N1CCOCC1)c1ccc(OC)cc1` was inactive: 7.75%.
Regarding `CN(C)C(=O)OCCc1n(C)cc[n+]1C`, the inhibition is inactive: -4.08%.
The value for `CC(C)=N/N=C(\N)N[N+](=O)[O-]` was inactive: -0.76%.
On to `CC1CCN(C(=O)Oc2c(Cl)cc(Cl)c3cccnc23)CC1`, for which the inhibition is inactive: -7.04%.
For the molecule `O=P1(N(CCCl)CCCl)OCCCS1` (stereo not given), the inhibition was inactive: -0.74%.
The value for `O=C(Nc1cc([As](=O)(O)O)ccc1O)c1ccccc1` was inactive: -3.3%.
To `CC(C)(C)C(=O)NC(Sc1ccncn1)C(Cl)(Cl)Cl` (stereo not given) belongs inactive: 21.9%; to `O=[N+]([O-])c1ncn(CCn2ncnc2[N+](=O)[O-])n1`, inactive: 1.52%.
To `COC(=O)C1(C)COP(=O)(Nc2ccccc2)OC1` (stereo not given) belongs inactive: -2.13%; to `O=[N+]([O-])c1cccc(NC2=NCC(CBr)S2)c1` (stereo not given), inactive: -0.34%; to `O=C(O)CNc1ccc([As](=O)(O)O)cc1`, inactive: -2.49%.
For the molecule `COc1ccc(N)c([N+](=O)[O-])c1[N+](=O)[O-]`, the inhibition was inactive: 4.21%.
The value for `CN(C)C1(CNC(=O)c2ccc(Cl)c(S(N)(=O)=O)c2)CCCCC1` was inactive: -17.3%; that for `O=P(Nc1ccccn1)(c1ccc(Br)cc1)c1ccc(Br)cc1` was inactive: 2.97%.
The value for `C[C@H]1OP(=O)(Oc2ccccc2)[C@H](O)[C@H](O)[C@H]1N=[N+]=[N-]` (stereo not given in full) was inactive: -18.8%.
To `O=P(Nc1nc2ccccc2s1)(c1ccccc1)c1ccccc1` belongs inactive: -15.2%.
For `O=[N+]([O-])c1ncn(CCn2cnc([N+](=O)[O-])n2)n1`, the inhibition is inactive: 2.97%.
For the molecule `CC(=O)NC(SC(=S)N(C)C)C(Cl)(Cl)Cl` (stereo not given), the inhibition was inactive: -5.94%.
To `O=[N+]([O-])c1ccc(O)c(/C=N/Nc2ccc([N+](=O)[O-])cc2[N+](=O)[O-])c1` belongs inactive: 17%; to `O=[As](O)(c1ccccc1)c1ccc(O)cc1`, inactive: 13.2%; to `C(Cc1nn[nH]n1)Cc1nn[nH]n1`, inactive: -1.32%.
To `Nc1ccc([As](=O)(O)c2ccc([N+](=O)[O-])cc2)cc1` belongs inactive: -5.53%.
The value for `O=C(OC1CN2CCC1CC2)c1cccc(Cl)c1` (stereo not given) was inactive: -7.15%; that for `O=P(Nc1nccs1)(c1ccccc1)c1ccccc1` was inactive: -9.27%.
Turning to `CC(C)C(=O)NC(Sc1ccccc1)C(Cl)(Cl)Cl` (stereo not given), the inhibition was inactive: -1.5%.
The value for `c1nnnn1CCn1cnnn1` was inactive: 4.36%; that for `CCOc1ccc(C2=NCC(CBr)S2)cc1` (stereo not given) was inactive: 3.84%.
As for `O=P1(Nc2nc3ccc(Cl)cc3s2)COc2ccccc2O1` (stereo not given), the inhibition was inactive: 10.8%.
To `CCc1cc(O)c([N+](=O)[O-])c(C)c1[N+](=O)[O-]` belongs inactive: -18.3%; to `CC(C)(C)C(=O)NC(Sc1ccccc1)C(Cl)(Cl)Cl` (stereo not given), inactive: -5.87%.
The value for `COC(=O)C1(C)COP(=O)(NCc2ccccc2)OC1` (stereo not given) was inactive: -0.37%; that for `CC(=O)c1ccc(N2CC2c2ccncc2)cc1` (stereo not given) was inactive: 18.7%.
The value for `N#C/C(=C\c1ccc(N(CCBr)CCBr)cc1)C(N)=O` was inactive: -17.1%; that for `C[C@H]1OP(=O)(Oc2ccccc2)C[C@@H]2O[C@@H]21` (stereo not given in full) was inactive: -21.1%.
Take `C[C@@H]1C=CCP(=O)(Oc2ccccc2)O1` (stereo not given in full): the inhibition was inactive: -5.95%.
The value for `Cc1ccccc1CN(C)C(=O)COC(=O)C(O)(c1ccccc1)c1ccccc1` was inactive: -5.46%; that for `CC(=O)Nc1ccc(Oc2c([N+](=O)[O-])cc([N+](=O)[O-])cc2[N+](=O)[O-])cc1` was inactive: -6.72%.
